Measured values from several laboratories, pooled; numbers as filed in NIAID ChemDB.

Shared fields: growth or infection tests; agent: HIV-1; read-out: EC50

An empty or dashed field is not shown. ECn is the concentration giving n% inhibition of infection, replication or growth. Neighbouring rows are from separate reports.

compound	read by	conditions	mutations	cells	strain or isolate	result
CC(C)CN(C[C@@H](O)[C@H](Cc1cc(F)cc(F)c1)NC(=O)O[C@H]1CCO[C@H]2OCC[C@H]21)S(=O)(=O)c1ccc2nc(NC(C)C)sc2c1	p24 / luminescence	-	L63P	PBMC	ERS104pre	0.003 µM
CCc1c(CC23CC4CC(CC(C4)C2)C3)nc(SCC(=O)c2ccc(OC)cc2)[nH]c1=O	MTT / absorbance	-	-	MT-4	IIIB	0.1 µM
C=C(C)C1Oc2ccc(C(C)=O)cc2C1OC(C)=O	p24 / syncytia	-	-	C8166	-	>50 µg/mL
COc1ccc(S(=O)(=O)N(CC(C)C)C[C@@H](O)[C@H](Cc2ccccc2)NC(=O)O[C@H]2CO[C@@H]3O[C@H]4OCC[C@H]4[C@@H]32)cc1	p24 / luminescence	-	L10F V32I M46I I54M A71V I84V	MT-4	NL4-3	>1 µM
N[C@@H](Cc1ccccc1)C(=O)N[C@@H](Cc1ccc(O)cc1)C(=O)O	cytopathic effect / neutral red	-	-	MT-2	IIIB	7 µg/mL
CC(C)CN(C[C@@H](O)[C@H](Cc1ccccc1)NC(=O)O[C@H]1CCOC1)S(=O)(=O)c1ccc(N)cc1	p24 / luminescence	-	-	MT-4	NL4-3	0.0249 µM
Cc1cn([C@H]2C[C@H](N=[N+]=[N-])[C@@H](CO)O2)c(=O)[nH]c1=O	cytopathic effect	-	RT-K101E	CEM	C-1 (RT-K101E)	0.0025 µM
Nc1ccn([C@H]2CC[C@@H](CO)O2)c(=O)n1	-	-	-	PBMC	LAI	0.15 µM
Cc1ncn(-c2ncc(F)c3c(C(=O)C(=O)N4CCC(C(O)(c5ccccc5)c5nccn5C)CC4)c[nH]c23)n1	luciferase / reporter gene / single cycle	-	-	MT-2	LAI	<0.5 µM
Cc1c(CC23CC4CC(CC(C4)C2)C3)nc(SCC(=O)c2ccccc2)[nH]c1=O	MTT / absorbance	-	-	MT-4	RES056	>306 µM
Cc1ccnc2c1NC(=O)c1cccnc1N2C1CC1	antigen	-	L74V	C8166	74V	0.0355 µM
Cc1cn([C@H]2C[C@H](N=[N+]=[N-])[C@@H](CO)O2)c(=O)[nH]c1=O	ATP	-	8374-P47 GS-8374-resistant	MT-2	IIIB	0.265 µM
Cc1cc(C#N)cc(C)c1Oc1nc(Nc2ccc(C#N)cc2)nc(N)c1Br	luciferase	clinical isolate	N348I	HEK293T	Clinical isolate	0.00452 µM
COc1ccc(S(=O)(=O)N(CC(C)C)C[C@@H](O)[C@H](Cc2ccccc2)NC(=O)O[C@H]2CO[C@H]3O[C@@H]4OCC[C@@H]4[C@H]32)cc1	p24 / luminescence	-	M46I V82F I84V	MT-4	NL4-3	0.0028 µM
O=c1[nH]cnc2c1ncn2[C@H]1CC[C@@H](CO)O1	-	-	RT-A98G K103R Y181C	PBMC	BCF01	<0.125 µM
Nc1ccn([C@H]2C=C[C@@H](CO)O2)c(=O)n1	plaque count	-	RT-M184V	CD4+HELA + HeLa	HXB2	0.5 µM
CC[C@H]1C(=O)Nc2ccc(F)cc2N1C(=O)OC(C)C	cytopathic effect	-	-	CEM	IIIB	0.001 µg/mL
Nc1ncn([C@@H]2O[C@H](CO)[C@@H](O)[C@H]2O)c(=O)n1	flow cytometry	-	-	CEM-GFP	NL4-3	112 µM
CCc1c(CC23CC4CC(CC(C4)C2)C3)nc(SCC(=O)Nc2ccc(C)cc2[N+](=O)[O-])[nH]c1=O	MTT / absorbance	-	-	MT-4	RES056	>23.16 µM
CO[P@](=O)(c1cc(C)cc(/C=C/C#N)c1)c1c(C(N)=O)[nH]c2ccc(Cl)cc12	-	-	K103N	PBMC	-	0.0009 µM
Cc1ccnc2c1NC(=O)c1cccnc1N2C1CC1	β-galactosidase	-	RT-Y188L	MAGI	NNRTI-resistant (RT Y188L)	>10 µM
CC(C)CN(C[C@@H](O)[C@H](Cc1ccccc1)NC(=O)O[C@H]1CCOC1)S(=O)(=O)c1ccc(N)cc1	p24 / luminescence	-	-	PBMC	92UG029	0.047 µM
C#C[C@]1(CO)O[C@@H](n2cnc3c(N)nc(F)nc32)C[C@@H]1O	single cycle / fluorescence	-	-	PBMC	-	0.00023 µM
CC(C)=CCN1c2cc(Cl)cc3[nH]c(=S)n(c23)C[C@@H]1C	-	-	RT-L74V A98G	MT-4	-	<0.8 µM
CC(C)Nc1cccnc1N1CCN(C(=O)c2cc3cc(NS(C)(=O)=O)ccc3[nH]2)CC1	cytopathic effect	-	RT-T139K Y181C Y188D/Y	CEM	Q-1 (RT T139K Y181C Y188D/Y)	1.1 µg/mL
Nc1ncnc2c1ncn2CCOCP(=O)(O)O	absorbance	-	-	MT-4	899A	2 µM
CCc1c(CC23CC4CC(CC(C4)C2)C3)nc(SCC(=O)Nc2ccc(C(C)=O)cc2Br)[nH]c1=O	MTT / absorbance	-	-	MT-4	IIIB	0.25 µM
S=C(NCCc1cccs1)Nc1ccc(Br)cn1	plaque count	-	RT-D67N K70R T215F K219Q	HT4 + HeLa	G691-2 Clinical isolate NRTI-resistant	0.005 µM
CCc1c(CC23CC4CC(CC(C4)C2)C3)nc(SCc2ccc(OC)cc2)[nH]c1=O	MTT / absorbance	-	-	MT-4	RES056	>10.32 µM
Nc1ncnc2c1ncn2[C@@H]1O[C@H](CO)C[C@@H]1F	thymidine uptake	-	-	ATH8	-	<5 µM
CCCCCCCCCCCCCCCCCCCCCCC(=O)O[C@@H]1[C@@H](C)[C@@]2(O)[C@@H](C=C(COC(C)=O)C[C@]3(O)C(=O)C(C)=C[C@@H]23)[C@@H]2C(C)(C)[C@]12O	p24 / ELISA	-	-	C8166	74V	1.828 µM
CN1N=C(N)c2cn([C@@H]3O[C@H](COP(=O)(O)O)[C@@H](O)[C@H]3O)c3ncnc1c23	XTT	-	-	CEM + CEM-SS	G5	0.15 µM
Cc1cn([C@H]2C=C[C@@H](CO)O2)c(=O)[nH]c1=O	plaque count	-	-	CD4+HELA + HeLa	HXB2	0.45 ± 0.07 µM
Nc1ncnc2c1ncn2C/C=N/OCP(=O)(O)O	absorbance	-	-	MT-4	899A	57 µM
[N-]=[N+]=NCCCCCCCCCCCC(=O)OC[C@@H]1O[C@H](n2cc(F)c(N)nc2=O)CS1	single cycle / luminescence	-	-	MAGI	BaL	0.2 µM
Cc1ccc(S(=O)(=O)N(CC(C)C)C[C@@H](O)[C@H](Cc2ccccc2)NC(=O)O[C@H]2CO[C@H]3OCC[C@H]32)cc1	ATP	-	-	MT-2	IIIB	0.0036 µM
Cc1cn([C@H]2C[C@H](N=[N+]=[N-])[C@@H](CO)O2)c(=O)[nH]c1=O	-	-	RT-A98G V106I Y181C	PBMC	BCF07	<0.01 µM
CCCCCCCCCCCCCC(=O)OC[C@@H]1O[C@H](n2cc(F)c(N)nc2=O)CS1	single cycle / luminescence	-	-	MAGI	IIIB	0.1 µM